From PMC9274624 (2022)

Biological target: SARS-CoV-2 prototype RBD (residues 319-541) (SARS-CoV-2, UniProt P0DTC2 319-541)
Experiment: SPR

B1: palm-civet ACE2 peptidase domain (residues 19-615) (domain or fragment)
chain: STTEELAKTFLETFNYEAQELSYQSSVASWNYNTNITDENAKNMNEAGAKWSAYYEEQSKLAQTYPLAEIQDAKIKRQLQALQQSGSSVLSADKSQRLNTILNAMSTIYSTGKACNPNNPQECLLLEPGLDNIMENSKDYNERLWAWEGWRAEVGKQLRPLYEEYVALKNEMARANNYEDYGDYWRGDYEEEWTGGYNYSRNQLIQDVEDTFEQIKPLYQHLHAYVRAKLMDTYPSRISRTGCLPAHLLGDMWGRFWTNLYPLTVPFGQKPNIDVTDAMVNQNWDARRIFKEAEKFFVSVGLPNMTQGFWENSMLTEPGDGRKVVCHPTAWDLGKGDFRIKMCTKVTMDDFLTAHHEMGHIQYDMAYAAQPFLLRNGANEGFHEAVGEIMSLSAATPNHLKTIGLLSPAFSEDNETEINFLLKQALTIVGTLPFTYMLEKWRWMVFKGAIPKEQWMQKWWEMKRNIVGVVEPVPHDETYCDPASLFHVANDYSFIRYYTRTIYQFQFQEALCQIAKHEGPLHKCDISNSTEAGKKLLEMLSLGRSEPWTLALERVVGAKNMNVTPLLNYFEPLFTWLKEQNRNSFVGWDTDWRPYSD
Kd: 38 µM
